# Measured values from patent publication US20140235490.
# T1: #115: [5-Fam]TRIDEANQRATK[DABCYL]-Nle, BoNT/A cleavable peptide
# T1 chain: TRIDEANQRATKX
# T2: #116: [4-Mu]TRIDEANQRATK[DABCYL]-Nle, BoNT/A cleavable peptide
# T2 chain: TRIDEANQRATKX
# B1: Proteinase K (protein)
# chain: AAQTNAPWGLARISSTSPGTSTYYYDESAGQGSCVYVIDTGIEASHPEFEGRAQMVKTYYYSSRDGNGHGTHCAGTVGSRTYGVAKKTQLFGVKVLDDNGSGQYSTIIAGMDFVASDKNNRNCPKGVVASLSLGGGYSSSVNSAAARLQSSGVMVAVAAGNNNADARNYSPASEPSVCTVGASDRYDRRSSFSNYGSVLDIFGPGTSILSTWIGGSTRSISGTSMATPHVAGLAAYLMTLGKTTAASACRYIADTANKGDLSNIPFGTVNLLAYNNYQA
# B2: Thermolysin (protein)
# chain: ITGTSTVGVGRGVLGDQKNINTTYSTYYYLQDNTRGNGIFTYDAKYRTTLPGSLWADADNQFFASYDAPAVDAHYYAGVTYDYYKNVHNRLSYDGNNAAIRSSVHYSQGYNNAFWNGSQMVYGDGDGQTFIPLSGGIDVVAHELTHAVTDYTAGLIYQNESGAINEAISDIFGTLVEFYANKNPDWEIGEDVYTPGISGDSLRSMSDPAKYGDPDHYSKRYTGTQDNGGVHINSGIINKAAYLISQGGTHYGVSVVGIGRDKLGKIFYRALTQYLTPTSNFSQLRAAAVQSATDLYGSTSQEVASVKQAFDAVGVK
# Legend:
# [1] = target: T1, #115: [5-Fam]TRIDEANQRATK[DABCYL]-Nle, …
# [2] = target: T2, #116: [4-Mu]TRIDEANQRATK[DABCYL]-Nle, …
protein,measurement,setting,value
B1,KM,[1],5.46 µM
same,KM,[2],4.48 µM
B2,KM,[1],8.16 µM
same,KM,[2],12.7 µM
